PubChem BioAssay AID504761, Drosophila RNAi Screening Center – 2011

Aim: 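Fly genes whose silencing reduces dengue virus type 2 infection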 (primary screen)
Cell system: D.Mel-2 cells from Drosophila
Reagent: long dsRNA against Drosophila genes
Challenge: infection with dengue virus type 2; dose and infection time not stated
Detection: 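Per well on two replicate plates, imaging gave the percent of cells positive for viral envelope protein, ranked by infection, and a nuclear count of cells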
Reading the numbers: infection score: higher = more virus-infected cells; cell count: higher = more cells in the well
Rule for the call: 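Very low infection ranking in both replicate wells (chance probability at most 0.065), then a retest showing infection dropped 1.5-fold or more at p below 0.05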
Calls: active = confirmed: knock-down lowers infection; inactive = not picked or not confirmed
In all, the deposit lists about 22,000 reagents; this is an unselected part of those with a known target gene and a result. Of all reagents, 116 (0.52%) got an active call. 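Calls depend on retest data that are not deposited; infection was ranked per plate without normalising between plates; the unit of the infection score is not given.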 Raw values vary from plate to plate and are shown uncorrected. Names joined by + are all predicted targets of the reagent. Not stated in the record: the amount of reagent, the time to read-out.

The first 2 records, to show the layout:
{"target": "CG7900 (GeneID 40957)", "dsRNA": "DRSC16336", "infection score, replicate 1": 5.11, "infection score, replicate 2": 10.7, "cell count, replicate 1": 6110, "cell count, replicate 2": 6536, "Call": "inactive"}
{"target": "CG7900 (GeneID 40957)", "dsRNA": "DRSC21343", "infection score, replicate 1": 16.3, "cell count, replicate 1": 5863, "cell count, replicate 2": 393, "Call": "inactive"}

Results, repeating the preview:
{"target": "CG7900 (GeneID 40957)", "dsRNA": "DRSC16336", "infection score, replicate 1": 5.11, "infection score, replicate 2": 10.7, "cell count, replicate 1": 6110, "cell count, replicate 2": 6536, "Call": "inactive"}
{"target": "CG7900 (GeneID 40957)", "dsRNA": "DRSC21343", "infection score, replicate 1": 16.3, "cell count, replicate 1": 5863, "cell count, replicate 2": 393, "Call": "inactive"}
{"target": "CG4972 (GeneID 34388)", "dsRNA": "DRSC02798", "infection score, replicate 1": 5, "infection score, replicate 2": 1.35, "cell count, replicate 1": 6260, "cell count, replicate 2": 6457, "Call": "inactive"}
{"target": "MFS3 (GeneID 33292)", "dsRNA": "DRSC00664", "infection score, replicate 1": 1.16, "infection score, replicate 2": 1.5, "cell count, replicate 1": 6204, "cell count, replicate 2": 6582, "Call": "active"}
{"target": "MFS3 (GeneID 33292)", "dsRNA": "DRSC28601", "infection score, replicate 1": 21.8, "infection score, replicate 2": 10.3, "cell count, replicate 1": 5398, "cell count, replicate 2": 5367, "Call": "inactive"}
{"target": "Cyp4d1 (GeneID 31188)", "dsRNA": "DRSC17694", "infection score, replicate 1": 1.13, "infection score, replicate 2": 0.89, "cell count, replicate 1": 6182, "cell count, replicate 2": 6065, "Call": "inactive"}
{"target": "Cyp4d1 (GeneID 31188)", "dsRNA": "DRSC18456", "infection score, replicate 2": 7.36, "cell count, replicate 1": 302, "cell count, replicate 2": 3884, "Call": "inactive"}
{"target": "Cyp4d1 (GeneID 31188)", "dsRNA": "DRSC23948", "infection score, replicate 1": 0.6, "infection score, replicate 2": 2.47, "cell count, replicate 1": 6120, "cell count, replicate 2": 6001, "Call": "inactive"}
{"target": "Vha16-2 (GeneID 39282)", "dsRNA": "DRSC10873", "infection score, replicate 1": 5.97, "infection score, replicate 2": 8.73, "cell count, replicate 1": 5960, "cell count, replicate 2": 5901, "Call": "inactive"}
{"target": "Vha16-2 (GeneID 39282)", "dsRNA": "DRSC25504", "infection score, replicate 1": 3.6, "infection score, replicate 2": 16.7, "cell count, replicate 1": 6279, "cell count, replicate 2": 5868, "Call": "inactive"}
{"target": "CG33630 (GeneID 3772504)", "dsRNA": "DRSC14546", "infection score, replicate 1": 3.3, "infection score, replicate 2": 6.03, "cell count, replicate 1": 6456, "cell count, replicate 2": 6645, "Call": "inactive"}
{"target": "Pstk + CG14210 + Tim9b", "dsRNA": "DRSC19566", "infection score, replicate 1": 8.02, "infection score, replicate 2": 8.39, "cell count, replicate 1": 5675, "cell count, replicate 2": 5420, "Call": "inactive"}
{"target": "Pstk + CG14210 + Tim9b", "dsRNA": "DRSC29021", "infection score, replicate 1": 3.5, "cell count, replicate 1": 3744, "cell count, replicate 2": 337, "Call": "inactive"}
{"target": "spel1 (GeneID 34842)", "dsRNA": "DRSC03617", "infection score, replicate 1": 4.61, "infection score, replicate 2": 4.56, "cell count, replicate 1": 6069, "cell count, replicate 2": 6026, "Call": "inactive"}
{"target": "spel1 (GeneID 34842)", "dsRNA": "DRSC29609", "infection score, replicate 1": 12.3, "infection score, replicate 2": 16.3, "cell count, replicate 1": 4914, "cell count, replicate 2": 3945, "Call": "inactive"}
{"target": "Ugt49C1 (GeneID 37421)", "dsRNA": "DRSC04252", "infection score, replicate 1": 1.47, "infection score, replicate 2": 2.22, "cell count, replicate 1": 6449, "cell count, replicate 2": 6700, "Call": "active"}
{"target": "Ugt49C1 (GeneID 37421)", "dsRNA": "DRSC27301", "infection score, replicate 1": 14.9, "infection score, replicate 2": 35.3, "cell count, replicate 1": 5644, "cell count, replicate 2": 6496, "Call": "inactive"}
{"target": "CG15878 (GeneID 38281)", "dsRNA": "DRSC08486", "infection score, replicate 1": 2.28, "infection score, replicate 2": 13.2, "cell count, replicate 1": 7225, "cell count, replicate 2": 6495, "Call": "inactive"}
{"target": "CG15878 (GeneID 38281)", "dsRNA": "DRSC28875", "infection score, replicate 1": 10.8, "infection score, replicate 2": 7.5, "cell count, replicate 1": 5328, "cell count, replicate 2": 4574, "Call": "inactive"}
{"target": "CG42266 (GeneID 7354431)", "dsRNA": "DRSC21577", "infection score, replicate 1": 1.32, "infection score, replicate 2": 3.28, "cell count, replicate 1": 6142, "cell count, replicate 2": 6614, "Call": "inactive"}
{"target": "CG42266 (GeneID 7354431)", "dsRNA": "DRSC21957", "infection score, replicate 1": 19.7, "infection score, replicate 2": 7.98, "cell count, replicate 1": 6954, "cell count, replicate 2": 2004, "Call": "inactive"}
{"target": "CG42266 (GeneID 7354431)", "dsRNA": "DRSC29782", "infection score, replicate 1": 25.6, "infection score, replicate 2": 8.88, "cell count, replicate 1": 5844, "cell count, replicate 2": 6014, "Call": "inactive"}
